# Source: US8716221B2 (priority 2005, dated 2014)
# Experiment: peptide synthesis
# Conditions: conjugation step
substance,measurement,value
HdAEGTFTSDL SKQNleEEEAVR LFIEWLKQGG PSSGAPPPC-NH2,conjugation yield,70-90%
